The target in test [1] is hemagglutinin (HA) of influenza A/Wisconsin/67/05 H3N2 (Influenza A virus A/Wisconsin/67/2005 …). The experiment in a line: ELISA, inactivated whole virions coated; transfection supernatant set 5. Background: In an ELISA, binding on a coated surface is turned into a signal by an enzyme label.
Test [2] has as its target recombinant soluble homotrimeric HA of A/Wisconsin/67/05 (H3N2) (Influenza A virus A/Wisconsin/67/05 …).
Test [3] addresses recombinant soluble homotrimeric HA of A/chicken/Vietnam/NCVD-016/08 (H5N1) (Influenza A virus …). The test is described as follows: microarray, BCC supernatant IgG, trimeric HA.
Test [4] concerns the target recombinant soluble homotrimeric HA of A/Solomon Islands/3/06 (H1N1) (Influenza A virus A/Solomon …). The experiment in a line: microarray, BCC supernatant IgG, trimeric HA.

The values below come from patent publication US20120207760A1, “Compositions and Methods for the Therapy and Diagnosis of Influenza” (THERACLONE SCIENCES, published 2012).

B1: TCN-548 (5092_P01) (antibody, V domains shown)
VH: QVQLQESGPGLVKPSETLSLTCTVSSGPMSDYYWSWIRQPPGKGLEWIGHVSVSHGGRTKSNPSVMSRVTISVETSKNQFSLKLTSVTAADTAVYYCARLNYYDRSGYHSPDGPSNNWFDPWGQGTLVTVSS
VL: DIVMTQSPDSLAVSLGERATINCKSSQSVLYSSNNKNYLAWYQQKPGQPPKLLIYWASTRESGVPDRISGSGSGADFTLTISSLQAEDVAVYYCQQYFATPRTFGQGTKVEIK
For the molecule B1, the OD450 in test [1] came out at 3.63 OD450.

B2: TCN-549 (5092_P04) (antibody, V domains shown)
VH: QVQLVQSGAEVKKPGASVKVSCKASGYTFTGYYMHWVRQAPGQGLEWMGWINPNSGDTNYAQKFQGRVTMTRDTSITTAYMELSSLRSDDTAVYYCARDSPYSSSWSFFDYWGQGPLVTVSS
VL: DIVMTQSPDSLAVSLGERATINCKSSQSVLYSSNNKSHLAWYQQKPGQPPKLLIYWASTRESGVPDRFSGSGSGTDFTLIISSLQAEDVAVYYCQQYYFSPLTFGGGTKVEIK
As to B2, the OD450 in test [1] was found to be 0.46 OD450.

B3: TCN-539 (5056_A08) (antibody, V domains shown)
VH: QVQLVESGGGVVQPGRSLRLSCAASEITFITYAMHWVRQAPGKGLEWVALISDDGSNKFYADSVKGRFTISRDNSKNTLYLQMNSLRAEDTAAYYCAREGVYFDSGTYRGYFDYWGQETLVTVSS
VL: EIVLTQSPATLSLSPGERATLSCRASQSVSSYLAWYQQKPGQAPRLLIYDASNRATGIPARFSGSGSGTDFTLTISSLEPEDFAVYYCQQRSHWPPITFGQGTRLEIK
For the molecule B3, in test [1], the OD450 was determined as 0.13 OD450.

B4: TCN-545 (5082_I15) (antibody, V domains shown)
VH: QVQLQQWGAGLLKPSETLSLSCAVFGGSFSDYYWTWIRQPPGKGLEWIGEIKHSGRTNYNPSLESRVTISVDTSKNQFSLKLSSVTAADTAIYYCARGTDPDTEGYCRSGSCSAFDFWGQGTLVTVSS
VL: EIVLTQSPGTLSLSPGERATLSCRASHFVNYRSLAWYQQTPGQVPRLLIYGASTRATGIPDRFSGSGSGTDFTLTISRLEPEDFAVYFCQQYGGSPRYTFGQGTRLEIK
In the case of B4, the “Trimeric HA Binding: RLU” value in test [2] is 575 RLU; in test [3] it was 392 RLU.

B5: TCN-545 (5082_I15) (antibody, V domains shown)
VH: QVQLQQWGAGLLKPSETLSLSCAVFGGSFSDYYWTWIRQPPGKGLEWIGEIKHSGRTNYNPSLESRVTISVDTSKNQFSLKLSSVTAADTAIYYCARGTDPDTEGYCRSGSCSAFDFWGQGTLVTVSS
VL: EIVLTQSPGTLSLSPGERATLSCRASHFVNYRSLAWYQQTPGQVPRLLIYGASTRATGIPDRFSGSGSGTDFTLTISRLEPEDFAVYFCQQYGGSPRYTFGQGTRLEIK
Molecule B5 came in with an OD450 in test [1] of 3.62 OD450.

B6: TCN-552 (5249_I23) (antibody, V domains shown)
VH: QVQVVQSGAEVKKPGSSVRVSCQASGGTFMNYAIIWVRRAPGQGLEWMGGIIPVFPTPNYAQMFQGRVTISTDESRSTSFLELTNLRYEDTAVYYCARRIYHGGNSGFDFWGQGTLVTVSS
VL: EIVLTQSPATLSLSPGERATLSCRASQSVGNYLAWYQQKPGQAPRLLIYDSSNRAPGIPARFSGSGSGTDFTLTISSLAPEDFAVYYCQQRSKWPPMYSFGHGTKLEIK
Molecule B6 returned an OD450 in test [1] of 0.27 OD450.

B7: TCN-554 (5277_M05) (antibody, V domains shown)
VH: QVQLVQSGADLKKPGASVKVSCKASGYTFTDYYIHWVRQAPGQGLEWMGWINPESGDTKYAQKFQGRVTMTRDTSITTAYMELGRLRSDDTAVYYCARDVSTTWSWFAPWGQGTLVTVSS
VL: DIVMTQSPDSLAVSLGERATINCRSSQSIFHNSNNENYLAWYQQKPGQPPKLLIYWASTRESGVPDRFSGSGSGTDFTLTISSLQAEDVAVYFCQQYYNAPLTFGGGTKVEIK
Turning to B7, in test [1], the OD450 came to 3.4 OD450.

B8: TCN-544 (5082_A19) (antibody, V domains shown)
VH: QVQLQESGPGLVKPSETLSLTCTVSRGSIGHYFWSWIRQPPGKGLEWIGYISYSGSTKYNPSLRSRVTISVDTSKNQFSLNLNSVTATDTALYYCAREDYDILTGAGPGMEVWGQGTTVTVSS
VL: QSMLTQPPSASGTPGQRVTISCSGSSSNIGSNTVNWFKHLPGTAPKLLIYRNDLRPSGVPDRFSGSKSGTSASLAISGLQSEDEADYYCATWDDSLNGFYVFGTGTKVTVL
For B8, the “Trimeric HA Binding: RLU” value in test [4] amounted to 179 RLU; in test [3], 272 RLU.

B9: TCN-544 (5082_A19) (antibody, V domains shown)
VH: QVQLQESGPGLVKPSETLSLTCTVSRGSIGHYFWSWIRQPPGKGLEWIGYISYSGSTKYNPSLRSRVTISVDTSKNQFSLNLNSVTATDTALYYCAREDYDILTGAGPGMEVWGQGTTVTVSS
VL: QSMLTQPPSASGTPGQRVTISCSGSSSNIGSNTVNWFKHLPGTAPKLLIYRNDLRPSGVPDRFSGSKSGTSASLAISGLQSEDEADYYCATWDDSLNGFYVFGTGTKVTVL
For B9, the OD450 in test [1] amounted to 3.65 OD450.

B10: TCN-547 (5092_F11) (antibody, V domains shown)
VH: QVQLQESGPGLVKPSQTLSLTCTVSGDSISSVDHYWSWIRQHPVKGLEWIGFMYYSASTYYNPSLKSRVTISTDTSKNQFSLRLSSVTAADTAVYYCARGTCAGDCSLHYYYYGLDVWGQGRTVTVSS
VL: DIQMTQSPSSLSASVGDRVTITCRASQSISSYLNWYQHKPGKAPKVLMYAVSILQSGVPSRFSGSGSGADFTLTISSLQPEDFATYYCQQSYSSPLTFGGGTKVEIK
Consider B10, for which the OD450 in test [1] was 0.13 OD450.

B11: TCN-537 (3194_D21) (antibody, V domains shown)
VH: QVQLQQWGSGLLKPSETLSLTCAVYGGSFRDDYWTWIRQPPGKGLEWIGEINHSGRTNYNPSLKSRVTISVDTSLKQFSLKVISVTAADTAVYYCARGTSHVSRYFDWLPPTNWFDPWGQGTQVTVSS
VL: DIVLTQSPGTLSLSPGERATLSCRASQSVSSSYLAWYQQKPGQAPRLVMYGAATRATGIPDRFSGSGSGPDFTLTISRLEPEDFAMYYCQQYGNSPITFGQGTRLEIK
In the case of B11, in test [1], the OD450 worked out at 0.11 OD450.

B12: TCN-550 (5096_F06) (antibody, V domains shown)
VH: QVQLQESGPGLVKPSETLSLTCTVSGASINSHYWSWIRQPPGKGLEWIGYVYYSGSTTYNPSLKSRVTLSVDTSKNQFSLNLSSVTAADTAFYYCARHPYDVLTGSGDWFDPWGQGTLVTVSS
VL: SYVLTQAPSVSVAPGQTARITCGGNAIGSKKVHWYQHKAGQAPVLVVYDDTDRPSGIPERFSGSNSWSTATLTINRVEAGDEADYYCQVWDFTIDHVVFGGGTKLTVL
On to B12, for which, in test [1], the OD450 is 3.62 OD450.

B13: TCN-555 (5246_L16) (antibody, V domains shown)
VH: QVQLVQSGAEVKRPGSSVKVSCTASGGIFRKNAISWVRQAPGQGLEWMGGIIAVFNTANYAQKFQNRVKITADESGNTAYMELSSLTSDDTAVYYCASHPKYFYGSGSYPDFWGQGTLVTVSS
VL: QSALTQPRSVSGSPGQSITISCTGGSSDIGASNSVSWYQQHPGKAPKLVIFDVTERPSGVPHRFSGSKSGNTASLTVSGLQPDDEADYFCCAYGGKYLVVFGGGTKVTVL
Turning to B13, the OD450 in test [1] came to 0.13 OD450.

B14: TCN-542 (5079_A16) (antibody, V domains shown)
VH: QVQLQESGPGLVKPSQTLSLTCTVSGGSISSGNYYWNWVRQHPGKGLEWIGYIYYRGSTFYNPSLKSRVTISIDTSKNQFSLRLSSVTAADTAVYYCAKDTRSSLDNYQYGMDVWGQGTTVTVSS
VL: QTVVTQEPSLTVSPGGTVTLTCASSTGAVTSSYFPNWFQQKPGQAPRPLIYSTTIRHSWTPARFSGSLLGGKAALTLSGVQPEDEADYYCLLYSGGDPVAFGGGTKLTVL
Take B14: the OD450 in test [1] was determined as 0.23 OD450.

B15: TCN-538 (3206_O17) (antibody, V domains shown)
VH: QITLKESGPTLVKPTQTLTLTCVFSGFSLSITGVRVGWIRQPPGKALEWLALISWDDEKHYSPSLQSRLTITKDTSKNQVVLTMTNLDPVDTATYYCARSTDRGHVLRYFGWMLPGDAFDVWGQGTMVTVSS
VL: DIVMTQSPDFLPVSLGERATINCKSSQRVLYSSNNKNYLAWYQLKPGQPPKLIIYWASTRESGVPDRFSGSGSGTEFTLTISSLQAEDVAVYYCQQYYSRPYTFGQGTKLEIK
Turning to B15, the OD450 in test [1] is 0.12 OD450.

B16: TCN-526 (5084_C17) (antibody, V domains shown)
VH: EVLMVESGGGLVQPGGSVRLSCVASGFSFSSHWMTWVRQAPGKGLEWVANIEDDGGDKYYVDSVKGRFIISRDNAKNSVYLQMNSLRAEDTAVYFCARGSGSSDRSDYDPHYYYYLDVWGKGATVTVSS
VL: DIQLTQSPSSLSASVGDRVTITCRASQSISRYLNWYQQKPGKAPKLLLFAASTLLDGVPSRFSGSGSGTDFTLTISSLQPEDFATYYCQRNHSPSWTFGQGTRVEIK
Take B16: the “Trimeric HA Binding: RLU” value in test [2] came out at 49300 RLU; in test [4], 341 RLU.

B17: TCN-529 (5297_H01) (antibody, V domains shown)
VH: QITLRESGPTLVKPTQTLTLTCTFSGFSLSTNGVNVGWIRQPPGKALEWLALIYWDDDKRYSPSLKRRLTITKDTSKNQVVLTLTNMDPVDTATYYCAHRPDFYGDFEYWGPGTLVTVSS
VL: QSALTQPASVSGSPGQSITISCTGSSSDIGGYNYVSWYQQHPGKAPKLMIYDVNNRPSGVSNRFSGSKSGNTASLTISGLQTDDEADYYCGSYTGSPHYVFGTGTKVTVL
Take B17: the figures for the “Trimeric HA Binding: RLU” value in test [2] and in test [3] were 51600 RLU and 410 RLU, respectively.

B18: TCN-553 (5261_C18) (antibody, V domains shown)
VH: QVQVVQSGTEVKKPGSSVKVSCQTSGGRFMSYAITWVRQAPGQGLEWMGGIVPVFGTANYAQKFQGRVTITTDDSTRTAYMELSSLRSEDTAVYYCGFRYGSGYGFDSWGQGTLVTVSS
VL: EIVLTQSPGTLSLSPGERATLSCRASQSVSSSYLAWYQKKPGQAPRLLIYGASTRATGIPDRFTGSGSGTDFTLSISRLEPEDFAVYYCQHFGTSVFTFGGGTKVEIK
On to B18, for which, in test [1], the OD450 turned out to be 0.17 OD450.

B19: TCN-551 (5243_D01) (antibody, V domains shown)
VH: EVQLVQSGSEVKKPGESLKISCKGSGYSFSNYWIGWVRHMPGKGLEWMGIIYPGDSDTRYSPSFQGQVTMSADKSSSTVYLQWSSLKASDTAIYYCARRGGHSFGYGSGGDTHSEFDSWGQGTLVTVSS
VL: QSVLTQSPSVSAAPGQKVTISCSGSDSNIGDYFVCWYQHLPGKPPQLLIYENNKRPSGIPDRFSGSKSGTSATLGITGIQTGDEADYYCATWDGSLSAWVFGGGTKLTVL
B19: the OD450 in test [1] worked out at 0.27 OD450.

B20: TCN-543 (5081_G23) (antibody, V domains shown)
VH: QVHLVQSGAEVRKPGDSVKVSCKTSGYTFSTYPVAWVRQVPGQGLEWMGWISTYNGNTNFAQNFQGRVTLTTDTTTNTAYMEVRSLKFDDTAVYYCARVEGSYRDFWNNQNRFDPWGQGTLVTVSS
VL: SYVLTQPPSVSVAPGQTARISCGGSNIGGKSVHWYQQKPGQAPVLVVYDDSGRPSGIPERFSGSNSGDTATLTISRVEAGDEADYFCQVWDNFGGVFGTGTKVTVL
B20 showed an OD450 in test [1] of 2.23 OD450.
